From paper PMC4963854 (Toxins, 2016) come the findings set out here.

The same purity stands for every peptide and may come from a single statement.

One series can be described thus: general procedure: Fmoc solid-phase peptide synthesis; 2-chloro-2-trityl chloride resin (f = 1.18 mmol/g); HOBt and DIC. Particulars: whole synthesis, HPLC, UV 210 nm, scale of the general procedure 200 mg resin.
On to Fluorescein‐DNLNHEELIQ, for which the “final HPLC purity” value worked out at 100%.

Fluorescein‐NDNLEE: the “final HPLC purity” value was found to be 100%. In the case of Ac-ERYKTMYADD, the “final HPLC purity” value is 100%. With Fluorescein‐LNANHEELIQ, the “final HPLC purity” value was determined as 100%. Same read-out and setting: the figure for Fluorescein‐DNLEE is 100%.

The series is the same for the next values; noted with them: whole synthesis, UV, scale of the general procedure 200 mg resin.
Turning to Fluo-INSYHGTIERYKTMYADD, the “final HPLC purity” value is 100%. On the same count and under the same terms, the figure for Fluo-FENRLNDNHEELIQ is 100%.

For Ac-LNDNHEELIQ, the “final HPLC purity” value amounted to 100%. Still for that read-out and setting: the figure for Fluo-HGTIERYKTMYADD is 100%; for Fluo-LRSAEFEETQ it is 100%; for Ac-FENRLNDNHEELIQ it is 100%. The same measure, in the same setting: the figure for Ac-GSGDTSLRSAEFEETQ is 100%; for Fluo-ERYKTMYADD it is 100%.

As to Ac-LRSAEFEETQ, the “final HPLC purity” value turned out to be 100%.

Regarding Fluo-GDTSLRSAEFEETQ, the “final HPLC purity” value is 100%.

As for Fluo-GSGDTSLRSAEFEETQ, the “final HPLC purity” value stood at 100%. On the same count and under the same terms, the figure for Ac-GDTSLRSAEFEETQ is 100%. Same read-out and setting: the figure for Fluo-LNDNHEELIQ is 100%; for Ac-TRKQFENRLNDNHEELIQ it is 100%. Turning to Fluo-TRKQFENRLNDNHEELIQ, the “final HPLC purity” value was found to be 100%.

Still in this series, the particulars now being: whole synthesis, scale of the general procedure 200 mg resin.
As to Fluorescein‐DNLNHEELIQ, the isolated yield amounted to 45%. For Fluorescein‐LNANHEELIQ, the isolated yield is recorded as 65%.
